Measured values from several laboratories, pooled; numbers as filed in NIAID ChemDB.

All rows: growth or infection tests; agent: Hepatitis B virus; cell line: HepG2.2.15; measure: EC50

An empty or dashed field is not shown.

| compound | read by | setting | value |
|---|---|---|---|
| CCOc1cccc(/C=C/C(=O)O[C@H]2CC[C@@]3(C)C(=CC[C@]4(O)C3C[C@@H](OC(=O)/C=C(\C)C(C)C)[C@@]3(C)[C@]4(O)CC[C@@]3(O)C(C)=O)C2)c1 | ELISA | - | 21.92 µM |
| O=C(/C=C/C=C/c1ccc([N+](=O)[O-])cc1)[Se]c1ccccc1 | PCR | - | 4.2 µM |
| O=Cc1cc(O)c(O)c(O)c1 | PCR | - | 27.17 µM |
| CCC[N+](O)(CCC)CCc1c[nH]c2ccccc12 | PCR / fluorescence | - | >100 µM |
| COc1cc(/C=C/C(=O)[Se]c2ccccc2)ccc1O | PCR | - | 19.7 µM |
| C=C1[C@@H](CO)[C@H](O)C[C@H]1n1cnc2c(N)[nH]c(=O)nc21 | - | - | 100 µM |
| CCOC(=O)c1ccc(O)cc1 | PCR | - | 59.52 µM |
| CC(C)=CCC[C@](C)(OC1OC(COC2OCC(O)C(O)C2O)C(O)C(O)C1O)[C@H]1CC[C@]2(C)[C@@H]1[C@H](O)C[C@@H]1[C@@]3(C)CC[C@H](O)C(C)(C)[C@@H]3[C@@H](OC3OC(CO)C(O)C(O)C3OC3OC(CO)C(O)C(O)C3O)C[C@]12C | PCR | 2 d | 4.078 µM |
| COC(=O)C1(O)C[C@H](O)C(OC(=O)/C=C/c2ccc(O)c(O)c2)[C@@H](O)C1 | ELISA / antigen | - | >2450 µM |
| Cc1cn([C@@H]2C[C@H](O)[C@H](CO)O2)c(=O)[nH]c1=O | - | - | >10 µM |
| CC(C)(C)[N+](O)(CCc1c[nH]c2ccccc12)C(C)(C)C | PCR / fluorescence | - | >100 µM |
| Cc1cn([C@@H]2C[C@@H](N=[N+]=[N-])[C@H](CO)O2)c(=O)[nH]c1=O | - | - | >10 µM |
| C[C@H]1[C@H](C)C[C@@H](C(=O)O[C@@H]2O[C@H](CO[C@@H]3O[C@H](CO)[C@@H](O[C@@H]4O[C@H](C)[C@H](O)[C@@H](O)[C@H]4O)[C@H](O)[C@H]3O)[C@@H](O)[C@H](O)[C@H]2O)C2CC[C@]3(C)C(=CC[C@@H]4[C@@]5(C)C[C@@H](O)[C@H](O)[C@@](C)(CO)[C@@H]5CC[C@]43C)[C@H]21 | ELISA / antigen | 7 d | 56.9 µM |
| CC(=O)[C@]1(O)CC[C@@]2(O)[C@]1(C)[C@H](OC(=O)/C=C(\C)C(C)C)CC1[C@@]3(C)CC[C@H](OC(=O)/C=C/c4ccccc4)CC3=CC[C@]12O | ELISA | - | 48.33 µM |
| O=C(/C=C/c1ccc(O)c(O)c1)O[C@@H]1[C@@H](OC(=O)/C=C/c2ccc(O)c(O)c2)C[C@@](O)(C(=O)O)C[C@@H]1O | PCR | - | 6.1 µM |
| COc1cc(C=O)cc(OC)c1O | PCR | - | 3720 µM |
| O=C(/C=C/c1ccc(O)c(O)c1)OC1[C@@H](O)CC(O)(C(=O)O)C[C@@H]1O | PCR | - | 13.7 µM |
| O=C1CCc2ccccc2[Se]1 | PCR | - | >50 µM |
| Cc1cn([C@H]2C[C@H](OP([O-])(=S)OC[C@H]3O[C@@H](n4cnc5c(N)ncnc54)C[C@@H]3O)[C@@H](COP([O-])(=S)O[C@H]3C[C@H](n4ccc(=O)[nH]c4=O)O[C@@H]3CO)O2)c(=O)[nH]c1=O | - | - | 2.2 µM |
| C[C@@H]1O[C@@H](O[C@H]2[C@H](O)[C@@H](O)[C@H](O[C@H]3CC[C@]4(C)[C@H]5C=C[C@]67OC[C@@]8(CCC(C)(C)C[C@H]86)[C@@H](O)C[C@@]7(C)[C@]5(C)CC[C@H]4C3(C)C)O[C@@H]2CO[C@@H]2O[C@H](CO)[C@@H](O)[C@H](O)[C@H]2O)[C@H](O)[C@H](O)[C@H]1O | - | - | 13.4 µg/mL |
| CC[N+](O)(CC)CCc1c[nH]c2ccccc12 | PCR / fluorescence | - | >100 µM |
| C=C1CCC2[C@](C)(COC(=O)c3ccccc3C(=O)O)[C@H](OC(=O)c3ccccc3C(=O)O)CC[C@@]2(C)[C@@H]1C/C=C1\C=COC1=O | ELISA | - | >9.4 µM |
| Nc1ccn([C@@H]2C[C@@H](F)[C@H](CO)O2)c(=O)n1 | - | - | 0.5 µM |
| COc1ccc([C@H]2OC[C@H]3[C@@H]2CO[C@@H]3c2ccc(OC)c(O)c2)cc1O | ELISA / antigen | - | 837 µM |
| Nc1nc(=O)n([C@@H]2CC[C@H](CO)O2)cc1Cl | - | - | 10 µM |
| COC(=O)[C@]1(O)C[C@@H](O)[C@@H](O)[C@H](OC(=O)/C=C/c2ccc(O)c(O)c2)C1 | ELISA / antigen | - | >1680 µM |

The last 3 rows once more:

compound | read by | setting | value
COc1ccc([C@H]2OC[C@H]3[C@@H]2CO[C@@H]3c2ccc(OC)c(O)c2)cc1O | ELISA / antigen | - | 837 µM
Nc1nc(=O)n([C@@H]2CC[C@H](CO)O2)cc1Cl | - | - | 10 µM
COC(=O)[C@]1(O)C[C@@H](O)[C@@H](O)[C@H](OC(=O)/C=C/c2ccc(O)c(O)c2)C1 | ELISA / antigen | - | >1680 µM

Conditions beyond the fields shown may differ between rows. ECn is the concentration giving n% inhibition of infection, replication or growth.